Compound potency records, mixed from different reports. Data source: NIAID ChemDB in PubChem.

All rows: tests in culture; organism: HIV-1; method: β-galactosidase; endpoint: EC50

Conditions beyond the fields shown may differ between rows.

{"SMILES": "CC(C)Oc1ccc(OC(C)C)c2c1-c1nc3nc(nc4[nH]c(nc5[nH]c(nc-2n1)c(SCCCC(=O)O)c5SCCCC(=O)O)c(SCCCC(=O)O)c4SCCCC(=O)O)C(SCCCC(=O)O)=C3SCCCC(=O)O", "cell line": "MAGI", "strain": "IIIB", "result": "<5 µg/mL"}
{"SMILES": "C=CCN(C(=O)OCc1ccc([N+](=O)[O-])cc1)C1CCN(CCC(Cn2cnc3ccccc32)c2ccccc2)CC1", "cell line": "MAGI + MAGI-CCR5", "strain": "BaL", "result": "<1 µM"}
{"SMILES": "Nc1ncc(CN(CCN2CCCCC2)CC2CCCN(C3CCCC3)C2)cn1", "cell line": "MAGI", "strain": "BaL", "result": ">10 µM"}
{"SMILES": "CC(C)(C)NC(=O)[C@@H]1CN(Cc2cccnc2)CCN1C[C@@H](O)C[C@@H](Cc1ccccc1)C(=O)N[C@H]1c2ccccc2C[C@H]1O", "cell line": "MAGI", "result": ">5 µg/mL"}
{"SMILES": "CC[C@H](C)[C@H](C(=O)O)N1C[C@H](CN2CCC(c3cc(Cc4ccc(OCc5ccccc5)cc4)nn3CC)CC2)[C@@H](c2cccc(F)c2)C1", "setting": "50% human serum", "cell line": "HeLa", "strain": "BaL", "result": "<0.3 µM"}
{"SMILES": "Cc1nc2ccccc2n1S(=O)(=O)c1cc(Br)ccc1Br", "mutations": "41-215 (AZT-resistant)", "cell line": "HeLa CD4", "strain": "NL4.3-XCS", "result": "0.914 µM"}
{"SMILES": "COc1cc(/C=C/c2ccc3ccc(C(=O)O)c(O)c3n2)cc(O)c1O", "cell line": "HeLaP4", "result": "0.3 µM"}
{"SMILES": "CCCOc1ccc(Cc2cc(C3CCN(C[C@H]4CN([C@@H](C(=O)O)C(C)C)C[C@@H]4c4cccc(F)c4)CC3)n(CC)n2)cc1", "cell line": "HeLa", "strain": "BaL", "result": "<0.0037 µM"}
{"SMILES": "c1cc(CN2CCCNCCNCCCNCC2)ccc1CN1CCCNCCNCCCNCC1", "cell line": "MAGI + MAGI-CCR5", "strain": "A031-2", "result": "1.33 µM"}
{"SMILES": "CCn1nc(Cc2ccc(S(=O)(=O)c3ccccc3)cc2)cc1C1CCN(C[C@H]2CN([C@@H](C(=O)O)C(C)C)C[C@@H]2c2cccc(F)c2)CC1", "setting": "50% human serum", "cell line": "HeLa", "strain": "BaL", "result": "<0.033 µM"}
{"SMILES": "Cc1cn([C@H]2C[C@H](N=[N+]=[N-])[C@@H](CO)O2)c(=O)[nH]c1=O", "mutations": "41-215 (AZT-resistant)", "cell line": "HeLa CD4", "strain": "NL4.3-XCS", "result": "1.12 µM"}
{"SMILES": "CCn1nc(Cc2ccc(C#N)cc2)cc1C1CCN(C[C@H]2CN([C@@H](C(=O)O)C(C)C)C[C@@H]2c2cccc(F)c2)CC1", "cell line": "HeLa", "strain": "BaL", "result": "<0.0012 µM"}
{"SMILES": "COc1ccc(CN(CCN2CCCCC2)CC2CCCN(C3CCCC3)C2)cc1O", "cell line": "MAGI", "strain": "LAI", "result": "5.2 µM"}
{"SMILES": "COc1cc(C(F)(F)F)cc(S(=O)(=O)c2cccc(N)c2C#N)c1", "mutations": "RT-V108I Y181C", "cell line": "HeLa + HELA CD4+", "result": "14 µM"}
{"SMILES": "CC[C@H](C)[C@H](C(=O)O)N1C[C@H](CN2CCC(c3cc(Cc4ccc(Oc5ccccc5)cc4)nn3CC)CC2)[C@@H](c2cccc(F)c2)C1", "cell line": "HeLa", "strain": "BaL", "result": "<0.0012 µM"}
{"SMILES": "NC1CCC(CN2CC(=O)N3C[C@@H](N(CCOc4ccccc4)S(=O)(=O)c4cccc(F)c4)C[C@H]3C2=O)CC1", "cell line": "HeLaP4", "strain": "NL4-3", "result": "0.241 µM"}
{"SMILES": "Cc1ccc(-c2ccc3c(c2)C=C(C(=O)Nc2ccc(C[N+](C)(C)C4CCOCC4)cc2)CCO3)cc1", "cell line": "MAGI + MAGI-CCR5", "strain": "JR-FL", "result": "0.002 µM"}
{"SMILES": "Cc1ccc(-n2nnnc2-c2cn[nH]c2-c2cccc(F)c2)cc1", "mutations": "WT", "cell line": "HeLa CD4", "strain": "NL4-3", "result": "1.117 µM"}
{"SMILES": "C#C[C@]1(CO)O[C@@H](n2cc(I)c(=O)[nH]c2=O)C[C@@H]1O", "mutations": "RT-M184V", "cell line": "HeLa", "result": "0.21 µM"}
{"SMILES": "O=C(O)/C=C/c1ccc[c]([Sb](=[O])([OH])[OH])c1", "cell line": "MAGI", "strain": "92US727 R5 clinical isolate", "result": "<10 µM"}
{"SMILES": "Cc1cc(Br)cc(S(=O)(=O)c2cccc(N)c2C#N)c1", "mutations": "RT-K103N Y181C", "cell line": "HeLa + HELA CD4+", "result": ">50 µM"}
{"SMILES": "C[N+]1(Cc2ccc(NC(=O)C3=Cc4cc(-c5ccccc5)ccc4CC3)cc2)CCCCCC1", "cell line": "MAGI + MAGI-CCR5", "strain": "JR-FL", "result": "0.82 µM"}
{"SMILES": "C=CCN(C(=O)OCc1ccc([N+](=O)[O-])cc1)C1CCN(CCC(Cn2c(CC)nc3ccccc32)c2ccccc2)CC1", "cell line": "MAGI + MAGI-CCR5", "strain": "BaL", "result": "<3 µM"}
{"SMILES": "C#C[C@]1(CO)O[C@@H](n2cc(C)c(=O)[nH]c2=O)C[C@@H]1O", "mutations": "RT-M41L T215Y", "cell line": "HeLa", "strain": "RT-M41L/T215Y", "result": "0.43 µM"}
{"SMILES": "C[N+]1(Cc2ccc(NC(=O)C3=Cc4cc(-c5ccccc5)ccc4CC3)cc2)CCCCC1", "cell line": "MAGI + MAGI-CCR5", "strain": "JR-FL", "result": "1.2 µM"}
{"SMILES": "CC[C@H](C)[C@H](C(=O)O)N1C[C@H](CN2CCC(c3cc(Cc4ccc(OC(C)C)cc4)nn3CC)CC2)[C@@H](c2cccc(F)c2)C1", "setting": "50% human serum", "cell line": "HeLa", "strain": "BaL", "result": "<0.033 µM"}
{"SMILES": "O=C([O-])c1ccc(C2=C3C=CC(=N3)C(c3ccc(C(=O)[O-])cc3)=C3C=CC(=N3)C(=c3ccc(=C([O-])[O-])cc3)c3ccc([n-]3)C(c3ccc(C(=O)[O-])cc3)=C3C=CC2=N3)cc1", "cell line": "MAGI cell", "strain": "BaL", "result": "0.89 µM"}
{"SMILES": "O=C(O)c1c(Br)c(Br)c(Br)c(Br)c1-c1c2ccc(=O)cc-2oc2cc(O)ccc12", "cell line": "MAGI", "strain": "IIIB", "result": "41.7 µM"}
{"SMILES": "Cc1cn([C@H]2C=C[C@@H](CO)O2)c(=O)[nH]c1=O", "mutations": "RT-A62V V75I F77L F116Y Q151M", "cell line": "MAGI (CCR5) + MAGI", "strain": "HXB2", "result": "64 µM"}
{"SMILES": "c1cc(CN2CCCNCCNCCCNCC2)ccc1CN1CCCNCCNCCCNCC1", "cell line": "MAGI cell", "strain": "BaL", "result": ">0.2 µM"}
{"SMILES": "COC(=O)N[C@H](C(=O)N[C@@H](Cc1ccccc1)[C@@H](O)CN(Cc1ccc(-c2ccccn2)cc1)NC(=O)[C@@H](NC(=O)OC)C(C)(C)C)C(C)(C)C", "mutations": "PR-M46I I54V A71V V82A", "cell line": "HeLa", "strain": "Site-directed PR mutant 04", "result": "0.00339 µM"}
{"SMILES": "c1cc(CN2CCCNCCNCCCNCC2)ccc1CN1CCCNCCNCCCNCC1", "cell line": "MAGI", "strain": "LAI", "result": "0.011 µM"}
{"SMILES": "COc1ccc(NC(=O)CSc2nnnn2-c2c(C)cc(C)cc2C)cc1Cl", "mutations": "K103N (NVP)", "cell line": "HeLa CD4", "strain": "NL4.3-XCS", "result": "1.043 µM"}
{"SMILES": "Cc1cc(O)cc(S(=O)(=O)c2cccc(N)c2C#N)c1", "mutations": "RT-K103N P225H", "cell line": "HeLa + HELA CD4+", "result": "5.5 µM"}
{"SMILES": "Cc1ccnc2c1NC(=O)c1cccnc1N2C1CC1", "mutations": "RT-K103N Y181C", "cell line": "MAGI", "strain": "NNRTI-resistant (RT K103N Y181C)", "result": ">8 µM"}
{"SMILES": "Cc1ccc(-c2ccc3c(c2)C=C(C(=O)Nc2ccc(C[N+]4(C)CCCCC4)cc2)CCC3)cc1", "cell line": "MAGI + MAGI-CCR5", "strain": "JR-FL", "result": "0.035 µM"}
{"SMILES": "N#C[C@]1(CO)O[C@@H](n2cnc3c(=O)[nH]cnc32)C[C@@H]1O", "mutations": "RT-M184V", "cell line": "MAGI", "strain": "3TC-resistant (RT M184V)", "result": "6.06 µM"}
{"SMILES": "CNC(=O)c1ccc(OC(C)C(=O)N2CCN(C(=O)c3ccccc3)C[C@H]2C)c(OC)c1", "cell line": "HeLaP4", "strain": "NL4-3", "result": "0.047 µM"}
{"SMILES": "C#C[C@@]1(CO)C=C[C@H](n2cc(C)c(=O)[nH]c2=O)O1", "cell line": "MAGI (CCR5) + MAGI", "strain": "HXB2 WT", "result": "1.5 µM"}
{"SMILES": "Nc1ccn([C@H]2C[C@H](O)[C@](CO)(CF)O2)c(=O)n1", "mutations": "RT M41L T69SSG insertion T215Y", "cell line": "HeLa", "strain": "RT-M41L T69SSG T215Y", "result": "0.066 µM"}
{"SMILES": "O=C(O)c1ccc(-c2c3nc(c(-c4ccc(C(=O)O)cc4)c4ccc([nH]4)c(-c4ccc(C(=O)O)cc4)c4nc(c(-c5ccc(C(=O)O)cc5)c5ccc2[nH]5)C=C4)C=C3)cc1", "cell line": "MAGI cell", "strain": "BaL", "result": "4.7 µM"}

A second listing of 6 rows from above:

SMILES	setting	mutations	cell line	strain	result
O=C(O)c1c(Br)c(Br)c(Br)c(Br)c1-c1c2ccc(=O)cc-2oc2cc(O)ccc12	-	-	MAGI	IIIB	41.7 µM
Nc1ccn([C@H]2C[C@H](O)[C@](CO)(CF)O2)c(=O)n1	-	RT M41L T69SSG insertion T215Y	HeLa	RT-M41L T69SSG T215Y	0.066 µM
c1cc(CN2CCCNCCNCCCNCC2)ccc1CN1CCCNCCNCCCNCC1	-	-	MAGI + MAGI-CCR5	A031-2	1.33 µM
COc1cc(/C=C/c2ccc3ccc(C(=O)O)c(O)c3n2)cc(O)c1O	-	-	HeLaP4	-	0.3 µM
NC1CCC(CN2CC(=O)N3C[C@@H](N(CCOc4ccccc4)S(=O)(=O)c4cccc(F)c4)C[C@H]3C2=O)CC1	-	-	HeLaP4	NL4-3	0.241 µM
O=C(O)c1ccc(-c2c3nc(c(-c4ccc(C(=O)O)cc4)c4ccc([nH]4)c(-c4ccc(C(=O)O)cc4)c4nc(c(-c5ccc(C(=O)O)cc5)c5ccc2[nH]5)C=C4)C=C3)cc1	-	-	MAGI cell	BaL	4.7 µM

ECn: concentration that inhibits the pathogen or its effect by n%. Blank or dashed fields: not listed here.